Measured values: article PMC5995905, “Confirmation of high-throughput screening data and novel mechanistic insights into VDR-xenobiotic interactions by orthogonal assays” (Scientific Reports, 2018)
“Also recorded” adds a separate entry of the source.

Sequences of proteins named here, by UniProt entry; tags and fusion partners are left off. A change or cut given only in a name is not applied to a line headed by its entry.
UniProt P11473: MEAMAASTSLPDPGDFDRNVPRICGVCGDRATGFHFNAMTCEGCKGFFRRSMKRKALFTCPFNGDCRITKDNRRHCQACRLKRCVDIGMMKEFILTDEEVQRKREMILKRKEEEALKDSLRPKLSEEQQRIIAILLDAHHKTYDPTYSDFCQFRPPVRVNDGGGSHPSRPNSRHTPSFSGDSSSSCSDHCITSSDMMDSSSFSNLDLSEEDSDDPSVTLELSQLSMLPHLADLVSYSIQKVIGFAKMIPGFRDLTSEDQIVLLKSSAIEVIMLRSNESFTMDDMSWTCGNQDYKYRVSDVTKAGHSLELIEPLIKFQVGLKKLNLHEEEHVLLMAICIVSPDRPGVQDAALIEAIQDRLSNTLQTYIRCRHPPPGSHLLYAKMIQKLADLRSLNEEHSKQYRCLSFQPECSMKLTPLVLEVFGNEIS

How the values were obtained:
[1] = biological target: human VDR (Homo sapiens, UniProt P11473); test: Transient transactivation assay (CYP24-Luc), antagonist mode with 3 nM 1,25D3, HEK293T cells; assay type: cell-based; conditions: antagonists; transient transactivation assay in the presence of 3 nM 1,25D3
[2] = system: human VDR ligand-binding domain; conditions: read-out: Tox21 IC 50; antagonist mode; Tox21 qHTS data set; cited from earlier work
[3] = biological target: VDR:RXR, VDR:SRC-1 and VDR:NCoR interactions (Homo sapiens, UniProt P11473); test: Mammalian 2-hybrid assay, summary in words of VDR coregulator interactions; assay type: cell-based; conditions: antagonists; with or without co-transfected full length RXR or SRC-1; listed as phenylarsine oxide
[4] = biological target: VDR:NCoR (Homo sapiens, UniProt P11473); test: Mammalian 2-hybrid assay, recruitment of corepressor NCoR by VDR, Cos7 cells; conditions: antagonists, normalized to DMSO set to 1
[5] = biological target: VDR:RXRα (Homo sapiens, UniProt P11473); test: Mammalian 2-hybrid assay, recruitment of RXRα by VDR, Cos7 cells; conditions: antagonists with 1,25D3; -SRC-1; percentage of vitamin D3; conc. in Fig 6: phenylarsine oxide 0.37, dibutyltin dichloride 1, K dicyanoaurate 6, aristolochic acid, carfizomib 12, menadiol 3 μM
[6] = biological target: VDR:SRC-1 (Homo sapiens, UniProt P11473); test: Mammalian 2-hybrid assay, recruitment of coactivator SRC-1 by VDR, Cos7 cells; conditions: antagonists with 1,25D3; -RXR; percentage of vitamin D3; conc. in Fig 6: phenylarsine oxide 0.37, Cd chloride 12, dibutyltin dichloride 1, aristolochic acid 12 μM

**Q.** Which Activity [1] does the source give for `O=[As]c1ccccc1` (stereo not shown) here?
**A.** Its Activity is “Active”.

**Q.** And the IC50 [2]?
**A.** The IC50 was 97.5 nM.

**Q.** And the “pattern of change of 1,25D3 induced VDR:coregulator interaction” value [3]?
**A.** Its value is “selectively inhibit VDR:RXR interactions only in the absence of full length wild type SRC-1; also recorded: selectively inhibited VDR:SRC-1 interactions only in the absence of full length wild type RXR”.

**Q.** What about the “Fold Change (pMNCoR + RXRα)” value ([4]; +RXR, conc. in Fig 6: phenylarsine oxide 0.37, proscillaridin, aristolochic acid 12 μM) of the same molecule?
**A.** The value was 1.5 fold.

**Q.** What about the “Fold Change (pMNCoR + EpSG5)” value ([4]; -RXR, conc. in Fig 6: K dicyanoaurate 6, proscillaridin, aristolochic acid 12, thiram 1 μM) of the same molecule?
**A.** Its value is 1.2 fold.

**Q.** And the “% Induction (pMRXRα + EpSG5)” value [5]?
**A.** Its value is 22.8%.

**Q.** And the “% Induction (pMSRC-1NR + EpSG5)” value [6]?
**A.** The value was 45.4%.
